This is a selection; strong and weak results do not stand in their true shares. Inconclusive results are not listed. Active and inactive are the calls of the source. Calls come from the whole dose curve.
Assay: Primary qHTS Assay for Foot and Mouth Disease Virus Antivirals against NCGC Sytravon and CBC Compound Libraries: Firefly Luciferase Signal; note: nearly all actives have a fitted effect of over 60% in size
Settings: FMDV antiviral cell assay; at 57.5 µM (top of the series) unless noted
% is set by controls: 0 for no effect and ±100 for the full control effect.

**Q.** With Fc1ccc(CNC2=NCC(CBr)S2)cc1 (configuration not stated) as the molecule, how does the activity change, negative = inhibition read?
**A.** inactive: 0%

**Q.** Which activity change, negative = inhibition does the source give for O=C(NC(Sc1ccccc1)C(Cl)(Cl)Cl)c1ccc(Cl)cc1 (configuration not stated) here?
**A.** inactive: -11.6%

**Q.** With O=C(NC(Sc1ccc(Cl)cc1)C(Cl)(Cl)Cl)c1ccccc1 (configuration not stated) as the molecule, how does the activity change, negative = inhibition read?
**A.** inactive: 3.79%

**Q.** With Cc1cccc(C(=O)NC(Sc2ccccc2)C(Cl)(Cl)Cl)c1 (configuration not stated) as the molecule, how does the activity change, negative = inhibition read?
**A.** inactive: 4.98%

**Q.** Which activity change, negative = inhibition does the source give for Clc1cccc(NC2=NCC(CBr)S2)c1 (configuration not stated) here?
**A.** inactive: 31.3%

**Q.** For O=C(/C=C/c1ccccc1)NC(Sc1ccc(Cl)cc1)C(Cl)(Cl)Cl (configuration not stated), which activity change, negative = inhibition is on record?
**A.** inactive: 0%

**Q.** Which activity change, negative = inhibition does the source give for ClCCNC1C2CC3CC(C2)CC1C3 (configuration not stated) here?
**A.** inactive: 0%

**Q.** For Fc1ccc(NC2=NCC(CI)S2)c(F)c1 (configuration not stated), which activity change, negative = inhibition is on record?
**A.** inactive: 3.3%

**Q.** Which activity change, negative = inhibition does the source give for BrCC1CN=C(Nc2ccccc2)S1 (configuration not stated) here?
**A.** inactive: 45.5%

**Q.** With NNc1ccc([N+](=O)[O-])cc1[N+](=O)[O-] as the molecule, how does the activity change, negative = inhibition read?
**A.** inactive: 103%

**Q.** Which activity change, negative = inhibition does the source give for Cc1ccc(C(=O)NC(Sc2ccc(Cl)cc2)C(Cl)(Cl)Cl)cc1 (configuration not stated) here?
**A.** inactive: 0.411%

**Q.** With O=[N+]([O-])c1cccc([N+](=O)[O-])c1 as the molecule, how does the activity change, negative = inhibition read?
**A.** inactive: -16.2% [at 115 µM]

**Q.** Which activity change, negative = inhibition does the source give for CN(C(=O)Cc1ccc(Cl)c(Cl)c1)[C@H]1CC[C@@]2(CCCO2)C[C@@H]1N1CCCC1 here?
**A.** inactive: -29.8%

**Q.** For Cc1ccc(C(=O)NC(Sc2ccccc2)C(Cl)(Cl)Cl)cc1 (configuration not stated), which activity change, negative = inhibition is on record?
**A.** inactive: 2.53%

**Q.** With NC(=O)Nc1ccc([As](=O)(O)O)cc1 as the molecule, how does the activity change, negative = inhibition read?
**A.** inactive: 7.23%

**Q.** For Cc1cccc([N+](=O)[O-])c1[N+](=O)[O-], which activity change, negative = inhibition is on record?
**A.** inactive: -17.4% [at 22.9 µM]

**Q.** With CCn1nc(C(=O)NCC2(N3CCCCC3)CCCCC2)c2ccccc2c1=O as the molecule, how does the activity change, negative = inhibition read?
**A.** inactive: 6.52%

**Q.** For CCOP(=O)(CC)Oc1ccc([N+](=O)[O-])cc1 (configuration not stated), which activity change, negative = inhibition is on record?
**A.** inactive: -18.5%

**Q.** With C/C1=C2N=C(/C=C3N=C(/C(C)=C4\[N-][C@@](C)([C@@H]5N=C1[C@](C)(CCC(=O)NC[C@@H](C)OP(=O)([O-])O[C@H]1[C@@H](O)[C@@H](n6cnc7cc(C)c(C)cc76)O[C@@H]1CO)[C@H]5CC(N)=O)[C@@](C)(CC(N)=O)[C@@H]4CCC(N)=O)[C@@](C)(CC(N)=O)[C@@H]\3CCC(N)=O)C(C)(C)[C@@H]/2CCC(N)=O.[C-]#N.[Co+3] as the molecule, how does the activity change, negative = inhibition read?
**A.** inactive: -20.6% [at 11.5 µM]

**Q.** For CN(C(=O)Cc1ccccc1)[C@H]1CC[C@@]2(CCCO2)C[C@@H]1N1CCCC1, which activity change, negative = inhibition is on record?
**A.** inactive: -14.9% [at 11.5 µM]

**Q.** For CCNC(C)Cc1ccc2c(c1)OCO2 (configuration not stated), which activity change, negative = inhibition is on record?
**A.** inactive: 17.9% [at 27 µM]

**Q.** Which activity change, negative = inhibition does the source give for BrCCNCCc1ccncc1 here?
**A.** inactive: 3.1%
